Results of unrelated studies side by side (data: NIAID ChemDB).

Shared fields: growth or infection tests; organism: Aspergillus fumigatus; endpoint: MIC90

An empty or dashed field is not shown. Rows are shuffled and stem from different studies. Two numbers with a dash give a range or band. A number after MIC or MFC names an inhibition level or a share of isolates.

compound	strain	result
C[C@H]1[C@H](O)[C@@H](C)/C=C/C=C/C=C/C=C/C=C/C=C/C=C/[C@H](O[C@@H]2O[C@H](C)[C@@H](O)[C@H](N)[C@@H]2O)C[C@@H]2O[C@](O)(C[C@@H](O)C[C@@H](O)CC[C@H](O)[C@@H](O)C[C@@H](O)CC(=O)O[C@H]1C)C[C@H](O)[C@H]2C(=O)O	29 isolates	1 µg/mL
C[C@@H](c1ncncc1F)[C@](O)(Cn1cncn1)c1ccc(F)cc1F	314 isolates	1 µg/mL
C[C@H]1[C@H](O)[C@@H](C)/C=C/C=C/C=C/C=C/C=C/C=C/C=C/[C@H](O[C@@H]2O[C@H](C)[C@@H](O)[C@H](N)[C@@H]2O)C[C@@H]2O[C@](O)(C[C@@H](O)C[C@@H](O)CC[C@H](O)[C@@H](O)C[C@@H](O)CC(=O)O[C@H]1C)C[C@H](O)[C@H]2C(=O)O	25 isolates	16 µg/mL
C[C@@H](c1ncncc1F)[C@](O)(Cn1cncn1)c1ccc(F)cc1F	62 isolates	0.5 µg/mL
C[C@@H](n1cnc2cc(Cl)ccc2c1=O)[C@](O)(Cn1cncn1)c1ccc(F)cc1F	10 clinical isolates	0.125 µg/mL
C[C@H]1[C@H](O)[C@@H](C)/C=C/C=C/C=C/C=C/C=C/C=C/C=C/[C@H](O[C@@H]2O[C@H](C)[C@@H](O)[C@H](N)[C@@H]2O)C[C@@H]2O[C@](O)(C[C@@H](O)C[C@@H](O)CC[C@H](O)[C@@H](O)C[C@@H](O)CC(=O)O[C@H]1C)C[C@H](O)[C@H]2C(=O)O		1 µg/mL
C[C@@H](c1ncncc1F)[C@](O)(Cn1cncn1)c1ccc(F)cc1F	35 isolates	0.5 µg/mL
CC[C@@H]([C@H](C)O)n1ncn(-c2ccc(N3CCN(c4ccc(OC[C@@H]5CO[C@@](Cn6cncn6)(c6ccc(F)cc6F)C5)cc4)CC3)cc2)c1=O	12 strains	0.12 µg/mL
CCC(C)CC(C)CCCCCCCCC(=O)N[C@H]1C[C@@H](O)[C@H](NCCN)NC(=O)[C@@H]2[C@@H](O)CCN2C(=O)[C@H]([C@H](O)CCN)NC(=O)[C@H]([C@H](O)[C@@H](O)c2ccc(O)cc2)NC(=O)[C@@H]2C[C@@H](O)CN2C(=O)[C@H]([C@@H](C)O)NC1=O	28 isolates	0.25 µg/mL
C[C@H]1[C@H](O)[C@@H](C)/C=C/C=C/C=C/C=C/C=C/C=C/C=C/[C@H](O[C@@H]2O[C@H](C)[C@@H](O)[C@H](N)[C@@H]2O)C[C@@H]2O[C@](O)(C[C@@H](O)C[C@@H](O)CC[C@H](O)[C@@H](O)C[C@@H](O)CC(=O)O[C@H]1C)C[C@H](O)[C@H]2C(=O)O	150 clinical isolates	0.5–1 µg/mL
CC[C@@H]([C@H](C)O)n1ncn(-c2ccc(N3CCN(c4ccc(OC[C@@H]5CO[C@@](Cn6cncn6)(c6ccc(F)cc6F)C5)cc4)CC3)cc2)c1=O		0.5 µg/mL
COc1cc(O)c2c(c1)C(=O)c1c(cc3c(c1O)-c1c(cc(C)c(C(=O)NC(CO)C(=O)O)c1O)[C@H](OC1OC(C)C(O)C(OC4OCC(O)C(O)C4O)C1O)C3O)C2=O	35 isolates	8 µg/mL
C[C@@H](c1ncncc1F)[C@](O)(Cn1cncn1)c1ccc(F)cc1F	94 isolates	1 µg/mL
CC[C@@H]([C@H](C)O)n1ncn(-c2ccc(N3CCN(c4ccc(OC[C@@H]5CO[C@@](Cn6cncn6)(c6ccc(F)cc6F)C5)cc4)CC3)cc2)c1=O	17 isolates	0.031 µg/mL
CC[C@@H]([C@H](C)O)n1ncn(-c2ccc(N3CCN(c4ccc(OC[C@@H]5CO[C@@](Cn6cncn6)(c6ccc(F)cc6F)C5)cc4)CC3)cc2)c1=O	256 isolates	0.5 µg/mL
CC(=O)OCC1C=C(c2ccc(Br)cc2)C(=O)O1	12 isolates	1 µg/mL
C[C@@H](c1ncncc1F)[C@](O)(Cn1cncn1)c1ccc(F)cc1F		0.5 µg/mL
C[C@H]1[C@H](O)[C@@H](C)/C=C/C=C/C=C/C=C/C=C/C=C/C=C/[C@H](O[C@@H]2O[C@H](C)[C@@H](O)[C@H](N)[C@@H]2O)C[C@@H]2O[C@](O)(C[C@@H](O)C[C@@H](O)CC[C@H](O)[C@@H](O)C[C@@H](O)CC(=O)O[C@H]1C)C[C@H](O)[C@H]2C(=O)O	17 isolates	2 µg/mL
CCN1CCC(O)(/C=C/c2ccc(Cl)cc2)C(C(=O)/C=C/c2ccc(Cl)cc2)C1	18 strains (amphotericin B-resistant)	5.84 µg/mL
OC(Cn1cncn1)(Cn1cncn1)c1ccc(F)cc1F	25 isolates	>128 µg/mL
CCC(C)CC(C)CCCCCCCCC(=O)N[C@H]1C[C@@H](O)[C@H](NCCN)NC(=O)[C@@H]2[C@@H](O)CCN2C(=O)[C@H]([C@H](O)CCN)NC(=O)[C@H]([C@H](O)[C@@H](O)c2ccc(O)cc2)NC(=O)[C@@H]2C[C@@H](O)CN2C(=O)[C@H]([C@@H](C)O)NC1=O	256 isolates	0.06 µg/mL
Nc1[nH]c(=O)ncc1F	12 strains	>128 µg/mL
CCC(C)n1ncn(-c2ccc(N3CCN(c4ccc(OC[C@H]5CO[C@](Cn6cncn6)(c6ccc(Cl)cc6Cl)O5)cc4)CC3)cc2)c1=O		0.1 µg/mL
CCC(C)n1ncn(-c2ccc(N3CCN(c4ccc(OC[C@H]5CO[C@](Cn6cncn6)(c6ccc(Cl)cc6Cl)O5)cc4)CC3)cc2)c1=O	314 isolates	1 µg/mL
CCCCCOc1ccc(-c2ccc(-c3ccc(C(=O)N[C@H]4C[C@@H](O)[C@@H](O)NC(=O)[C@@H]5[C@@H](O)[C@@H](C)CN5C(=O)[C@H]([C@H](C)O)NC(=O)[C@H]([C@H](O)[C@@H](O)c5ccc(O)cc5)NC(=O)[C@@H]5C[C@@H](O)CN5C(=O)[C@H]([C@H](C)O)NC4=O)cc3)cc2)cc1	35 isolates	0.0075 µg/mL
CCCCCOc1ccc(-c2cc(-c3ccc(C(=O)N[C@H]4C[C@@H](O)[C@@H](O)NC(=O)[C@@H]5[C@@H](O)[C@@H](C)CN5C(=O)[C@H]([C@H](O)CC(N)=O)NC(=O)[C@H]([C@H](O)[C@@H](O)c5ccc(O)c(OS(=O)(=O)O)c5)NC(=O)[C@@H]5C[C@@H](O)CN5C(=O)[C@H]([C@@H](C)O)NC4=O)cc3)no2)cc1	25 isolates	0.06 µg/mL
CC(=O)N1CCN(c2ccc(OC[C@H]3CO[C@](Cn4ccnc4)(c4ccc(Cl)cc4Cl)O3)cc2)CC1	25 isolates	16 µg/mL
C[C@H]1[C@H](O)[C@@H](C)/C=C/C=C/C=C/C=C/C=C/C=C/C=C/[C@H](O[C@@H]2O[C@H](C)[C@@H](O)[C@H](N)[C@@H]2O)C[C@@H]2O[C@](O)(C[C@@H](O)C[C@@H](O)CC[C@H](O)[C@@H](O)C[C@@H](O)CC(=O)O[C@H]1C)C[C@H](O)[C@H]2C(=O)O	256 isolates	1 µg/mL
C[C@@H]1C/C=C/C=C/C=C/C=C/[C@H](OC2O[C@H](C)[C@@H](O)[C@H](N)[C@@H]2O)CC2O[C@](O)(C[C@@H](O)C[C@H]3O[C@@H]3/C=C/C(=O)O1)C[C@H](O)[C@H]2C(=O)O	Species complex	4 µg/mL
C[C@H]1[C@H](O)[C@@H](C)/C=C/C=C/C=C/C=C/C=C/C=C/C=C/[C@H](O[C@@H]2O[C@H](C)[C@@H](O)[C@H](N)[C@@H]2O)C[C@@H]2O[C@](O)(C[C@@H](O)C[C@@H](O)CC[C@H](O)[C@@H](O)C[C@@H](O)CC(=O)O[C@H]1C)C[C@H](O)[C@H]2C(=O)O	12 isolates	0.25 µg/mL
C[C@H]1[C@H](O)[C@@H](C)/C=C/C=C/C=C/C=C/C=C/C=C/C=C/[C@H](O[C@@H]2O[C@H](C)[C@@H](O)[C@H](N)[C@@H]2O)C[C@@H]2O[C@](O)(C[C@@H](O)C[C@@H](O)CC[C@H](O)[C@@H](O)C[C@@H](O)CC(=O)O[C@H]1C)C[C@H](O)[C@H]2C(=O)O	3 clinical isolates	2 µg/mL

A second listing of 3 rows from above:

compound | strain | result
C[C@H]1[C@H](O)[C@@H](C)/C=C/C=C/C=C/C=C/C=C/C=C/C=C/[C@H](O[C@@H]2O[C@H](C)[C@@H](O)[C@H](N)[C@@H]2O)C[C@@H]2O[C@](O)(C[C@@H](O)C[C@@H](O)CC[C@H](O)[C@@H](O)C[C@@H](O)CC(=O)O[C@H]1C)C[C@H](O)[C@H]2C(=O)O | 256 isolates | 1 µg/mL
Nc1[nH]c(=O)ncc1F | 12 strains | >128 µg/mL
OC(Cn1cncn1)(Cn1cncn1)c1ccc(F)cc1F | 25 isolates | >128 µg/mL